Pooled drug test results. Numbers come from NIAID ChemDB, via PubChem.

Shared fields: whole-cell or culture tests; organism: HIV-1; endpoint: EC50

ECn is the concentration giving n% inhibition of infection, replication or growth.

| compound | mutations | method | strain | cells | setting | value |
|---|---|---|---|---|---|---|
| CCc1c(C(=O)c2cc(C)cc(C)c2)n(CC2CC=CC2)c(=O)[nH]c1=O |  | cytopathic effect / XTT | TEKI | PBMC | clinical isolate | 0.001 µM |
| Cc1cc(C#Cc2cccc(N)c2)cc(C)c1Oc1ccnc(NC2CCN(c3cccc(C(N)=O)c3)CC2)n1 | RES056 | MTT | IIIB | MT-4 |  | >1.063 µM |
| Fc1cccc(F)c1C1SCc2nc3ccccc3n21 |  | cytopathic effect / XTT | ED | CEM + CEM-SS |  | 0.98 µM |
| O=c1[nH]cnc2c1ncn2[C@H]1CC[C@@H](CO)O1 |  | RT activity | HX | MT-2 |  | 1.6 µM |
| CC(=O)Nc1cccc(C#Cc2cc(C)c(Oc3ccnc(Nc4ccc(C#N)cc4)n3)c(C)c2)c1 | L100I | MTT | IIIB | MT-4 |  | ≥0.169 µM |
| Cc1nnc(C(C)C)n1C1C[C@H]2CC[C@@H](C1)N2CC[C@H](NC(=O)C1CCC(F)(F)CC1)c1ccccc1 |  | luminescence | BaL | TZM-bl |  | 4.2 µM |
| C/C=C(/C)C(=O)O[C@@H]1[C@@H](C)[C@@]2(O)C(C=C(CO)C[C@]3(O)C(=O)C(C)=CC23)C2C(C)(C)[C@@]21OC(=O)C(C)CC |  | cytopathic effect / microscopy / visual reading | LAV-1 | MT-4 |  | <31.3 µg/mL |
| Cc1cn([C@H]2C[C@H](N=[N+]=[N-])[C@@H](CO)O2)c(=O)n(N)c1=O |  | p24 / RT activity | BRU | PBMC |  | <2.5 µM |
| CN(Cc1ccc(F)cc1F)c1ccc(C#N)cn1 |  | flow cytometry | NL4-3 | HEK 293 | pseudotyped | 7.4 µM |
| CC(C)CN(C[C@@H](O)[C@H](Cc1ccccc1)NC(=O)O[C@H]1CCOC1)S(=O)(=O)c1ccc(N)cc1 |  | p24 / luminescence | NL4-3 | MT-4 |  | 0.029 µM |
| Cc1nc2ccccc2c(-c2ccc3c4c(cccc24)C2CC32)c1[C@H](OC(C)(C)C)C(=O)O |  | ATP | IIIB | MT-4 |  | 0.043 µM |
| Cc1ccnc2c1NC(=O)c1cccnc1N2C1CC1 |  | ELISA | MN | C8166 |  | 0.018 µM |
| O=C(Nc1nc2ccc([N+](=O)[O-])cc2s1)c1ccc([N+](=O)[O-])s1 |  | flow cytometry | NL4-3 | CEM-GXR |  | 2.4 µM |
| Cc1cc(C#CC2CC2)cc(C)c1Oc1ccnc(Nc2ccc(C#N)cc2)n1 | F227L + V106A | MTT | IIIB | MT-4 |  | 5.3 µM |
| O=C1NCCc2cc(Br)c(c(Br)c2)Oc2cc(cc(Br)c2O)CCNC(=O)/C(=N/O)Cc2cc(Br)c(c(Br)c2)Oc2cc(cc(Br)c2O)C/C1=N/O |  | GFP / reporter gene | NL4-3 | CEM-GXR |  | 1.2 µM |
| CCCCCCCCCC(=O)O[C@@]12[C@H](OC(C)=O)[C@@H](C)[C@@]3(O)[C@@H](C=C(CO)C[C@]4(O)C(=O)C(C)=C[C@@H]34)[C@@H]1C2(C)C |  | cytopathic effect / microscopy / visual reading | LAV-1 | MT-4 |  | <0.0076 µg/mL |
| Cc1nnc(C(=O)NC(C)(C)c2nc(C(=O)NCc3ccc(F)cc3)c(O)c(=O)n2C)o1 |  | GFP / reporter gene | NL4-3 | CEM-GXR |  | 0.011 µM |
| Nc1nc(=O)n([C@@H]2CS[C@H](CO)O2)cc1F | A62V/T69ins/V75I/A98G/K103S/G190A | recombinant virus assay | Clinical isolate | MT-2 |  | 2.709 µM |
| Cc1cn([C@H]2C=C[C@@H](CO)O2)c(=O)[nH]c1=O | RT-M41L V118I M184V | luciferase | Recombinant | HeLa |  | 1.34 µM |
| Cc1cc(C#Cc2cccc(N)c2)cc(C)c1Oc1ccnc(NC2CCN(Cc3ccc(S(N)(=O)=O)cc3)CC2)n1 | RES056 | MTT | IIIB | MT-4 |  | >0.732 µM |
| Cc1cc(N)c(C)c2c1[nH]c1cc(Cl)ccc12 |  | luminescence | BaL | TZM-bl |  | 9.5 µM |
| Cc1cc(S(N)(=O)=O)ccc1NC(=O)COc1ccc(Cl)cc1C(=O)c1cc(Cl)cc(C#N)c1 | RT-A62V V75I F77L Q151M | β-galactosidase | NRTI resistant (RT A62V V75I F77L Q151M) MDR151 | MAGI |  | 0.002 µM |
| Cc1cn([C@H]2C[C@H](N=[N+]=[N-])[C@@H](CO)O2)c(=O)[nH]c1=O |  | virus yield | LAV-1 | U-937 |  | <10 µM |
| O=C1N(Cc2ccc(CO)cc2)[C@H](Cc2ccccc2)[C@H](O)[C@@H](O)[C@@H](Cc2ccccc2)N1Cc1ccc(CO)cc1 | PR-L10R M46I V82T | p24 | NL4-3 | MT-4 |  | <0.2 µM |
| CCCN(C)C(=O)Oc1nsnc1-c1c(Cl)ccc(N)c1Cl |  | MTT | IIIB | MT-4 |  | 0.042 µM |
| Cc1cc(N)c(C)c2c1[nH]c1c(Cl)cccc12 |  | luminescence | BaL | TZM-bl |  | 12.1 µM |
| C/C=C(\C)C(=O)O[C@@]12[C@H](O)[C@@H](C)[C@@]3(O)[C@@H](C=C(COC(=O)CCCCCCC/C=C\C/C=C\CCCCC)C[C@]4(O)C(=O)C(C)=C[C@@H]34)[C@@H]1C2(C)C |  | cytopathic effect / microscopy / visual reading | LAV-1 | MT-4 |  | <7.81 µg/mL |
| Cc1ccnc2c1NC(=O)c1cccnc1N2C1CC1 |  | RT activity | PDBC | MT-2 |  | 0.054 µM |
| Cc1cc(=O)c2ccc(N=C=S)cc2o1 |  | p24 / ELISA | NL4-3 | PBMC |  | 0.154 µM |
| O=C1N(Cc2ccc(CO)cc2)[C@H](Cc2ccccc2)[C@H](O)[C@@H](O)[C@@H](Cc2ccccc2)N1Cc1ccc(CO)cc1 |  | plaque count / virus yield | RF | MT-2 |  | <0.07 µg/mL |
| CNCCSS(=O)(=O)CCNC |  | XTT / p24 | ADA | Macrophage + Monocytes/macrophages |  | >100 µM |
| Cc1ccc(-n2c(-n3[nH]c(=O)c4ccccc4c3=O)nc3ccccc3c2=O)cc1 |  | visual reading | IIIB | MT-4 |  | 100 µM |
| Cc1ccnc2c1NC(=O)c1cccnc1N2C1CC1 | K103N | RT activity / fluorescence |  |  |  | >67.5 µM |
| Cc1cn([C@H]2C[C@H](N=[N+]=[N-])[C@@H](CO)O2)c(=O)[nH]c1=O |  | p24 / RT activity | RF | CEM + CEM-SS |  | 0.095 µM |
| O=c1[nH]n(-c2nc3ccccc3c(=O)n2-c2ccccc2Cl)c(=O)c2ccccc12 |  | visual reading | IIIB | MT-4 |  | 100 µM |
| Nc1ccc(-c2cccc(OCC(F)(F)F)c2)c(C(Cc2cc(F)cc(F)c2)NC(=O)Cc2c[nH]c3ccc(F)cc23)n1 |  | ATP | IIIB | MT-4 |  | 3 µM |
| Cc1cn([C@H]2C=C[C@@H](CO)O2)c(=O)[nH]c1=O | K103N/Y188L | recombinant virus assay | Clinical isolate | MT-2 |  | 0.384 µM |
| [NH4+] |  | antigen | GUN1 | C8166 |  | >100 µg/mL |
| O=c1[nH]n(-c2nc3ccccc3c(=O)n2-c2ccncc2)c(=O)c2ccccc12 |  | visual reading | IIIB | MT-4 |  | 100 µM |
| Cc1cc(C#Cc2cccc(N)c2)cc(C)c1Oc1ccnc(NC2CCN(Cc3ccc(C#N)cc3)CC2)n1 | Y181C | MTT | IIIB | MT-4 |  | >0.261 µM |
| Cn1c2ccccc2c2c1cc(C#N)c(=O)n2-c1ccc([N+](=O)[O-])cc1 | RT-T69K K70G V75I F77L F116Y Q151M M184V | luciferase | NRTI resistant | HeLa |  | 0.425 µM |
| CNCc1ccc2c(c1)[C@H](NC(=O)C(=O)Nc1ccc(Cl)c(F)c1)[C@@H](CN=C(N)N)[C@@H]2CCCO |  | luciferase / entry |  | Cf2Th-CD4/CCR5 |  | >100 µM |
| C/C=C(/C)C(=O)O[C@]12C(C3C=C(CO)C[C@]4(O)C(=O)C(C)=CC4[C@@]3(O)[C@H](C)[C@H]1OC(C)=O)C2(C)C |  | cytopathic effect / microscopy / visual reading | LAV-1 | MT-4 |  | <125 µg/mL |
| Cc1cccc(C)c1OCC(=O)N[C@@H](Cc1ccccc1)[C@@H](O)C[C@H](Cc1ccccc1)NC(=O)[C@H](C(C)C)N1CCCNC1=O |  | p24 / luminescence | NL4-3 | MT-4 |  | 0.024 µM |
| COc1ccc(CN(CCN2CCCCC2)CC2CCCN(C3CCCC3)C2)cc1O |  | luciferase / cell fusion | NL4-3 | 293T |  | 7.9 µM |
| C=CCn1c(-n2[nH]c(=O)c3ccccc3c2=O)nc2ccccc2c1=O |  | visual reading | IIIB | MT-4 |  | 100 µM |
| CC(C)(C)NC(=O)[C@@H]1C[C@@H]2CCCC[C@@H]2CN1C[C@@H](O)[C@H](Cc1ccccc1)NC(=O)[C@H](CC(N)=O)NC(=O)c1ccc2ccccc2n1 | PR-L10R L63P V82T I84V | p24 | NL4-3 | MT-4 |  | <0.1 µM |
| Cc1cc(/C=C/c2ccccc2)cc(C)c1Oc1ccnc(Nc2ccc(C#N)cc2)n1 | E138K | MTT | IIIB | MT-4 |  | 0.235 µM |
| CC(C)OC(=O)OCOP(=O)(CO[C@H](C)Cn1cnc2c(N)ncnc21)OCOC(=O)OC(C)C | A502V | GFP | NL4-3 | TZM-gfp |  | 0.12 µM |
| Cc1cn([C@H]2C[C@H](N=[N+]=[N-])[C@@H](CO)O2)c(=O)[nH]c1=O | RT-A62T V118I M184V | luciferase | Recombinant | HeLa |  | 0.0304 µM |

7 of the rows above, restated:

compound	mutations	method	strain	cells	setting	value
Cc1cc(/C=C/c2ccccc2)cc(C)c1Oc1ccnc(Nc2ccc(C#N)cc2)n1	E138K	MTT	IIIB	MT-4		0.235 µM
O=C1N(Cc2ccc(CO)cc2)[C@H](Cc2ccccc2)[C@H](O)[C@@H](O)[C@@H](Cc2ccccc2)N1Cc1ccc(CO)cc1		plaque count / virus yield	RF	MT-2		<0.07 µg/mL
CNCc1ccc2c(c1)[C@H](NC(=O)C(=O)Nc1ccc(Cl)c(F)c1)[C@@H](CN=C(N)N)[C@@H]2CCCO		luciferase / entry		Cf2Th-CD4/CCR5		>100 µM
CC(=O)Nc1cccc(C#Cc2cc(C)c(Oc3ccnc(Nc4ccc(C#N)cc4)n3)c(C)c2)c1	L100I	MTT	IIIB	MT-4		≥0.169 µM
Cc1ccnc2c1NC(=O)c1cccnc1N2C1CC1		ELISA	MN	C8166		0.018 µM
[NH4+]		antigen	GUN1	C8166		>100 µg/mL
C/C=C(\C)C(=O)O[C@@]12[C@H](O)[C@@H](C)[C@@]3(O)[C@@H](C=C(COC(=O)CCCCCCC/C=C\C/C=C\CCCCC)C[C@]4(O)C(=O)C(C)=C[C@@H]34)[C@@H]1C2(C)C		cytopathic effect / microscopy / visual reading	LAV-1	MT-4		<7.81 µg/mL

Lines come from different laboratories, so protocols vary. An empty or dashed field is not shown.